Compound potency records, mixed from different reports. Data source: NIAID ChemDB in PubChem.

An empty or dashed field is not shown.

| SMILES | read-out | organism | kind | strain or isolate | read by | target | dose | value |
|---|---|---|---|---|---|---|---|---|
| S=c1nc2[nH]c3ccccc3c2n[nH]1 | MIC bound | Mycobacterium tuberculosis | culture | H37Rv | BACTEC |  |  | >12.5 µg/mL |
| CCCCCCCCCCCCS(=O)(=O)c1ccc(-n2c(C)ccc2C)cc1 | MIC | Mycobacterium tuberculosis | culture | H37Rv |  |  |  | >100 µg/mL |
| COc1ccc2n[se]nc2c1 | MIC bound | Mycobacterium tuberculosis | culture | H37Rv | BACTEC |  |  | >12.5 µg/mL |
| CC(NCCNCc1ccc(C(F)(F)F)cc1)c1c[nH]c2ccccc12 | MIC | Mycobacterium tuberculosis | culture |  |  |  |  | 25 µM |
| C=C(NC(C)=O)C(=O)OC | MIC | Mycobacterium tuberculosis | culture | H37Rv |  |  |  | >100 µg/mL |
| NNC(=O)/C(NC(=O)c1ccccc1)=C(\N)c1cccc([N+](=O)[O-])c1 | inhibition | Mycobacterium tuberculosis | culture | H37Rv | BACTEC |  | 12.5 µg/mL | 43% |
| Fc1ccc(N2CCCCC2)c(NC(=S)c2ccncc2)c1 | inhibition |  | host protein |  | kinase activity | IR | 10 µM | 17% |
| Fc1ccccc1CNCCNCc1ccco1 | MIC | Mycobacterium tuberculosis | culture |  |  |  |  | 50 µM |
| Cc1cc(C)c(C#CC(=O)O)c(C)c1 | MIC | Mycobacterium tuberculosis | culture | H37Rv |  |  |  | >100 µg/mL |
| CCC(C)Nc1c([N+](=O)[O-])cc(C(F)(F)F)cc1[N+](=O)[O-] | inhibition | Mycobacterium tuberculosis | culture | H37Rv | BACTEC |  | 12.5 µg/mL | 11% |
| CCCC(N)C(=O)O | MIC | Mycobacterium tuberculosis | culture | H37Rv |  |  |  | >100 µg/mL |
| NC(=O)C(Cc1ccc(O)cc1)NC(=O)c1cccnc1 | MIC bound | Mycobacterium tuberculosis | culture | H37Rv | BACTEC |  |  | >12.5 µg/mL |
| FC(F)(F)c1ccc(CNCCNCC23CC4CC(CC(C4)C2)C3)cc1 | MIC | Mycobacterium tuberculosis | culture |  |  |  |  | 25 µM |
| Nc1ccc(OCC(F)F)cc1 | MIC | Mycobacterium tuberculosis | culture | H37Rv |  |  |  | >100 µg/mL |
| C=CCc1ccc(O)c(OC)c1 | MIC90 | Candida tropicalis | culture | 3261 | turbidity |  |  | 490 µg/mL |
| Cc1ccc(N=Cc2cc(Cl)cc(Cl)c2OC(=O)c2ccccc2)cc1Cl | inhibition | Mycobacterium tuberculosis | culture | H37Rv | BACTEC |  | 12.5 µg/mL | 0% |
| CC(=O)Nc1ccc(S(=O)(=O)Nc2nccc(N3CCCCC3)n2)cc1 | MIC | Mycobacterium tuberculosis | culture | H37Rv |  |  |  | >100 µg/mL |
| CN(CCO)C1=CC(=O)C(N2c3ccccc3Nc3cc(O)c(N(C)CCO)cc32)=CC1=O | inhibition | Mycobacterium tuberculosis | culture | H37Rv | BACTEC |  | 12.5 µg/mL | -27% |
| CCOC(=O)c1cc(I)c(N)c(I)c1 | MIC | Mycobacterium tuberculosis | culture | H37Rv |  |  |  | >100 µg/mL |
| c1ccc(C(CCNCCN2CCCC3CCCCC32)c2ccccc2)cc1 | MIC | Mycobacterium tuberculosis | culture |  |  |  |  | 12.5 µM |
| Cn1c(=O)c2[nH]c(SSc3nc4c([nH]3)c(=O)n(C)c(=O)n4C)nc2n(C)c1=O | inhibition | Mycobacterium tuberculosis | culture | H37Rv | BACTEC |  | 6.25 µg/mL | 1% |
| COC(=O)c1ccccc1NC(=O)CC(C)=O | MIC | Mycobacterium tuberculosis | culture | H37Rv |  |  |  | >100 µg/mL |
| c1cc(NCCNC2CCCCC2)c2cccnc2c1 | MIC | Mycobacterium tuberculosis | culture |  |  |  |  | 3.13 µM |
| O=C1/C(=c2\c3ccccc3n3c(=O)c4ccccc4nc23)Nc2ccccc21 | MIC bound | Mycobacterium tuberculosis | culture | H37Rv | BACTEC |  |  | >12.5 µg/mL |
| CC(C)OCC1(c2ccccc2)NC(=O)NC1=O | MIC | Mycobacterium tuberculosis | culture | H37Rv |  |  |  | >100 µg/mL |
| CC(C)c1ccc2c(c1)CC[C@H]1[C@](C)(CNCCNC3CCCCC3)CCC[C@]21C | MIC | Mycobacterium tuberculosis | culture |  |  |  |  | 25 µM |
| CCN(CC)CCSC(CC(=O)c1ccc(Cl)cc1)c1ccc(N(C)C)cc1.Cl | MIC | Mycobacterium tuberculosis | culture | H37Rv |  |  |  | >100 µg/mL |
| CC(CNCCNCCc1ccc(F)cc1)c1ccccc1 | MIC | Mycobacterium tuberculosis | culture |  |  |  |  | 50 µM |
| O=c1c(I)c[nH]cc1I | MIC | Mycobacterium tuberculosis | culture | H37Rv |  |  |  | 100 µg/mL |
| CCOC(=O)c1oc(C(=O)OCC)c(O)c1O | inhibition | Mycobacterium tuberculosis | culture | H37Rv | BACTEC |  | 12.5 µg/mL | 7% |
| CCCCC(CC)CN1CN(CC(CC)CCCC)CC(C)(NCCNCCc2ccc(OC)c(OC)c2)C1 | MIC | Mycobacterium tuberculosis | culture |  |  |  |  | 6.25 µM |
| Cc1ccc2c(=O)n(C)c(=O)n(C)c2n1 | inhibition | Mycobacterium tuberculosis | culture | H37Rv | BACTEC |  | 12.5 µg/mL | -15% |
| CC(NCCNCCC(c1ccccc1)c1ccccc1)C12CC3CC(CC(C3)C1)C2 | MIC | Mycobacterium tuberculosis | culture |  |  |  |  | 6.25 µM |

3 of the rows above, restated:

SMILES	read-out	organism	kind	strain or isolate	read by	target	dose	value
CC(NCCNCc1ccc(C(F)(F)F)cc1)c1c[nH]c2ccccc12	MIC	Mycobacterium tuberculosis	culture					25 µM
CC(C)OCC1(c2ccccc2)NC(=O)NC1=O	MIC	Mycobacterium tuberculosis	culture	H37Rv				>100 µg/mL
CCCCCCCCCCCCS(=O)(=O)c1ccc(-n2c(C)ccc2C)cc1	MIC	Mycobacterium tuberculosis	culture	H37Rv				>100 µg/mL

Neighbouring rows are from separate reports. MIC50, MIC90 and the like: level of inhibition, or share of isolates inhibited. Percent inhibition refers to the dose given; in toxicity tests it is the harm to the cells. MIC bound comes from a single tested concentration.